{"source": "paper PMC12480751", "about": "“A quantitative high-throughput screening pipeline to identify small molecule inhibitors of Chikungunya nsP2 protease” (Scientific Reports, 2025)", "key": {"[1]": {"target": "nsP2 protease (Chikungunya virus, UniProt Q8JUX6)", "assay": "Cell-based nsP2 proteolytic assay, split Nluc reporter in HEK293 cells"}, "[2]": {"target": "CHIKV nsP2pro (Chikungunya virus, UniProt Q8JUX6)", "assay": "FRET-based nsP2pro proteolytic assay with peptide 2 (nsp3/4 site), 1,536-well qHTS", "details": "nsP2pro biochemical assay, 13 cell-active hits"}}, "data": [{"smiles": "Oc1ccc(CNc2ccccc2F)c2cccnc12", "values": [{"measurement": "Cell-based % Efficacy", "setting": "[1]; increase of Nluc reporter signal", "value": 181.6, "unit": "%"}, {"measurement": "AC50", "setting": "[1]; read-out: Cell-based AC50, increase of Nluc reporter signal", "value": 0.9, "unit": "µM"}, {"measurement": "Enzymatic % Efficacy", "setting": "[2]", "value": -118.4, "unit": "%"}, {"measurement": "IC50", "setting": "[2]; read-out: Enzymatic IC50", "value": 1.9, "unit": "µM"}]}]}
